Measurements reported in PubChem BioAssay AID624099 (ICCB-Longwood, 2012).
Screen: 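Human genes that papillomavirus E2 requires to repress the HPV18 LCR promoter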 (primary screen). Cell system: human C33A cervical carcinoma cells (HPV-negative) stably expressing BPV1 E2 and an HPV18 LCR luciferase reporter. Reagents: siRNA pool against human genes, 40 nM. Duration: 72 h. Read-out: 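Per-well luciferase luminescence, z-scored on each plate against the plate mean and SD with control wells left out, then averaged across three replicate plates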. Direction: mean z-score and z-score: higher = stronger reporter signal, weaker E2 silencing. Hit rule: 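Mean z ≥ 2 together with z ≥ 2 in two or more of the three replicates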.
Here is an unselected part of about 21,000 reagents tested. In the full data, 497 (2.4%) got an active call. 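Higher z means weaker E2 silencing; only reporter increases were scored, and knock-downs that hurt cell survival may mask genuine repressor factors.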 A number with no mark means an inactive call. The numbers tell different reagents against one gene apart.

| gene knocked down | reagent no. | mean z-score | z-score, replicate A | z-score, replicate B | z-score, replicate C |
| --- | --- | --- | --- | --- | --- |
| PRAMEF9 | 1 | 0.18 | 0.05 | 0.03 | 0.46 |
| HK3 | 1 | 1.16 | 1.74 | 0.67 | 1.06 |
| SERP1 | 1 | 0.53 | 0.23 | 0.79 | 0.56 |
| MRPL4 | 1 | 1.36 | 1.41 | 1.56 | 1.12 |
| SLC35D4 | 1 | 0.73 | 0.66 | 0.93 | 0.61 |
| NAA60 | 1 | -0.43 | -0.4 | -0.4 | -0.49 |
| GLI2 | 1 | -2.31 | -1.9 | -2.77 | -2.25 |
| RPS6KA6 | 1 | -0.69 | -0.86 | -0.5 | -0.72 |
| LRRIQ4 | 1 | -0.12 | -0.8 | 0.4 | 0.03 |
| SCO1 | 1 | -1.08 | -1 | -1.02 | -1.22 |
| LOC341651 (retired record) | 1 | 1.41 | 1.47 | 1.4 | 1.36 |
| RTF2 | 1 | -0.18 | -0.27 | -0.28 | 0.02 |
| LOC389651 (retired record) | 1 | 1.09 | 0.95 | 1.18 | 1.13 |
| ZNF814 | 1 | -0.43 | -0.51 | -0.41 | -0.38 |
| STUM | 1 | 1.23 | 1.3 | 1.17 | 1.21 |
| STUM | 2 | 1.41 | 0.96 | 1.25 | 2.02 |
| TRAM1L1 | 1 | 0.2 | 0.77 | 0.02 | -0.19 |
| ELF5 | 1 | -0.51 | -0.02 | -0.8 | -0.72 |
| PABPC1L2A | 1 | -0.44 | -0.3 | -0.68 | -0.36 |
| LOC283804 | 1 | 0.09 | 0.32 | -0.65 | 0.6 |
| CCPG1 | 1 | 0.09 | 0.07 | 0.19 | 0.01 |
| AWAT2 | 1 | 0.16 | 1.01 | -0.32 | -0.21 |
| PC | 1 | 0.54 | 0.6 | 0.59 | 0.43 |

Already shown: an excerpt of the list.
| gene knocked down | reagent no. | mean z-score | z-score, replicate A | z-score, replicate B | z-score, replicate C |
| --- | --- | --- | --- | --- | --- |
| RTF2 | 1 | -0.18 | -0.27 | -0.28 | 0.02 |
| LOC389651 (retired record) | 1 | 1.09 | 0.95 | 1.18 | 1.13 |
